PubChem BioAssay AID624099, ICCB-Longwood, 2012
This is one part, drawn at random, of about 21,000 reagents tested. Over the whole deposit, 497 (2.4%) got an active call. 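Higher z means weaker E2 silencing; only reporter increases were scored, and knock-downs that hurt cell survival may mask genuine repressor factors.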 Entries without a mark were called inactive.

Screen: 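Human genes that papillomavirus E2 requires to repress the HPV18 LCR promoter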 (primary screen)
System: human C33A cervical carcinoma cells (HPV-negative) stably expressing BPV1 E2 and an HPV18 LCR luciferase reporter
Reagents: siRNA pool against human genes, 40 nM
Duration: 72 h
Measured: 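HPV18 LCR reporter light per well, converted to plate-wise z-scores that exclude control wells, and averaged over triplicate plates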
Reading the numbers: mean z-score and z-score: higher = stronger reporter signal, weaker E2 silencing
Rule for the call: 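Mean z ≥ 2 together with z ≥ 2 in two or more of the three replicates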

Gene	mean z-score	z-score, replicate A	z-score, replicate B	z-score, replicate C
KSR2	-0.48	-0.28	-0.76	-0.4
PGM5P1 (retired record)	-0.93	-0.91	-0.73	-1.13
C1RL	-0.73	-0.51	-1.17	-0.49
TAS2R45	1.38	1.04	1.6	1.48
TGFB1	-1.45	-1.35	-1.56	-1.45
SYCN	-1.25	-1.04	-1.29	-1.42
AMBRA1	0.28	0.53	0.25	0.06
MORN1	-1.78	-1.69	-1.93	-1.71
ST7	0.46	0.57	0.38	0.42
ACR	0.26	0.44	0.37	-0.03
GPRC6A	-1.09	-1.01	-0.95	-1.33

As entered above:
Under “z-score, replicate A”, KSR2 shows -0.28
Entry of C1RL in “z-score, replicate C”: -0.49
Under “z-score, replicate B”, ST7 has 0.38
Under “z-score, replicate A”, TGFB1 has -1.35

Further records follow.
Gene	mean z-score	z-score, replicate A	z-score, replicate B	z-score, replicate C
SETD3	-0.26	-0.32	-0.24	-0.22
CTAGE6	-0.75	-0.81	-0.66	-0.79
OTUD5	0.3	0.39	0.33	0.17
MUTYH	0.43	0.32	0.49	0.49
VSIG10L	-0.25	-1.26	0.88	-0.37
BBIP1	1.6	1.63	1.91	1.26
B3GNT7	0.45	0.9	0.18	0.28
IAPP	-0.67	-0.62	-0.69	-0.7
DCTN6	0.12	0.04	0.21	0.1
DLX2	-1.47	-1.42	-1.65	-1.33
FSHB	-0.16	-0.21	-0.09	-0.17
LOC256283 (retired record)	-0.64	-0.92	-0.71	-0.29
